The target of the data set is His-Fur (UniProt P0C6C8). In words: DNase I footprinting. To be noted: 100 uM MnCl, 1 mM MgCl2, 2.95 and 8.85 pmol His-Fur; 10 mM Tris-HCl pH 7.5, 50 mM KCl, 1 mM MgCl2, 0.5 mM DTT, 0.05 mg/ml BSA, 10 mg/ml salmon sperm DNA; room temperature, 20 min; recombinant protein; residues 1-150; protein details: 6xHis (pET28a); label: FAM or HEX; probe letters rebuilt from the primers and the genome.

Protein sequences, listed by entry. Tags and fused reporters are not part of them. Lines headed by an entry give the natural chain unless they say otherwise; changes in a name come on top.
UniProt P0C6C8: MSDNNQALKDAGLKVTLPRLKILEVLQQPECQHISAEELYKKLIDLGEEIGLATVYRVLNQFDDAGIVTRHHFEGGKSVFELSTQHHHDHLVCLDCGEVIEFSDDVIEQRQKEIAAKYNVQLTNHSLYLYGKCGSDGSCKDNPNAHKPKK

Construct, isoform or probe ends are uncertain for at least one entry.

For “GTAAAACGACGGCCAGTCTTCTGTAGGAATTTTCTCTCAAAAAGATCACAACAACAGAATAGGAGGATTTATTTACGCTAAAGCTATTAATAACGTTGCCTATTTTATCTTTATTACATTATTATTTATCTATAAGTGTGATCTCTGCCATGGGTCTGTGACGATTGAAACGATATTTCTTTACATTACTGTTAAGTGTTTTTGCATTATTTGTGCGTGCTGCGGATTATTTGGATCCGAATGAGCAAGCGTATGTAGAGCAAAAATCTACAGTCACCATTGCAGTATTAAAAGAAATCTGGATGCCTTACTGGGGTGGGACAGGTCAGGAGCCGATAGGGTCATA (double strand) [vieS footprinting probe]”, the binding result is “binds”.
As for “GTAAAACGACGGCCAGTATCTCAGGTTTGGCTTCGATAGCGGGAGTTGGCTCTGCAGGAGTCTCAGGCGCAGTTTCAGGTACTTCATTGGCTTTAGCCGCTTCCGCATCCATCTGCGGTTTGAGATAAAACAGATAAAATCCCGCACCTGCTCCACCTAATCCGAGTATCAGCACGAGTAGCATGAGTATTTTTTTCATTTTCCCCCGCTCGTAAAATTTCTCTAGCGCAACGTCATTGATATGAAAATGCGACGAATCTTACTTTCTTATCAATATAGCGGGATATTTGAACAAAGCTTGACCAGAAATCTTCTGATAAAAAGATTTTTTGAAGTAAAGGCACACTTCATGCTGTC (double strand) [cdgD footprinting probe]”, the binding result is given as “binds”.

The values above are taken from paper PMC7641913.
